Source: patent US10144713B1, “Bis-cyclic guanidines as antibacterial agents” (UNIVERSITY OF SOUTH FLORIDA, priority 2017, dated 2018)

Test system: human red blood cells (hRBCs)
Assay: Hemolytic assay
Format: cell-based
Settings: HC50/MIC MRSA
Description: The freshly drawn, K2EDTA treated human red blood cells (hRBCs) were washed with 1×PBS buffer, and centrifuged at 3500 rpm for 10 min. The step was repeated until the supernatant became clear. The supernatant was removed, and the RBCs were diluted into 5% v/v suspension. 50 μL of the suspension was incubated with 50 μL of compounds of different concentrations at 37° C. for 1 h. The mixture was centrifuged at 3500 rpm for 10 min. Subsequently, to 30 μL of the supernatant 100 μL PBS was added, and the absorbance of the mixture at 540 nm was read on a Biotek Synergy HT plate reader. The positive control was 2% Triton X-100, and the negative control was 1×PBS alone. The hemolysis activity was calculated by the formula % hemolysis=(Abssample−AbsPBS)/(AbsTriton−AbsPBS)×100%. The experiment was repeated at least three times with duplicates each time.

Row | SMILES | Activity Index
1 | N=C1N(CC(=O)Nc2ccc(NC(=O)CN3C[C@H](Cc4ccccc4)N(CCCc4ccccc4)C3=N)cc2)C[C@H](Cc2ccccc2)N1CCCc1ccccc1 [Compound 5] | 424
2 | N=C1N(CC(=O)Nc2cccc(NC(=O)CN3C[C@H](Cc4ccccc4)N(CCCc4ccccc4)C3=N)c2)C[C@H](Cc2ccccc2)N1CCCc1ccccc1 [Compound 6] | >83
3 | N=C1N(CC(=O)NCCCCCCNC(=O)CN2C[C@H](Cc3ccccc3)N(CCCc3ccccc3)C2=N)C[C@H](Cc2ccccc2)N1CCCc1ccccc1 [Compound 9] | 66
4 | CCCCCCN1C(=N)N(CC(=O)Nc2ccc(NC(=O)CN3C[C@H](Cc4ccccc4)N(CCCCCC)C3=N)cc2)C[C@@H]1Cc1ccccc1 [Compound 11] | >769
5 | CCCCCCN1C(=N)N(CC(=O)Nc2cccc(NC(=O)CN3C[C@H](Cc4ccccc4)N(CCCCCC)C3=N)c2)C[C@@H]1Cc1ccccc1 [Compound 12] | >1534
6 | CCCCCCN1C(=N)N(CC(=O)NCCCCNC(=O)CN2C[C@H](Cc3ccccc3)N(CCCCCC)C2=N)C[C@@H]1Cc1ccccc1 [Compound 13] | >333
7 | CCCCCCN1C(=N)N(CC(=O)NCCCCCCNC(=O)CN2C[C@H](Cc3ccccc3)N(CCCCCC)C2=N)C[C@@H]1Cc1ccccc1 [Compound 14] | >769
8 | CCCCCCN1C(=N)N(CC(=O)NCCCCCCCCNC(=O)CN2C[C@H](Cc3ccccc3)N(CCCCCC)C2=N)C[C@@H]1Cc1ccccc1 [Compound 15] | >333
9 | N=C1N(CC(=O)Nc2ccc(NC(=O)CN3C[C@H](Cc4ccccc4)N(CCCC4CCCCC4)C3=N)cc2)C[C@H](Cc2ccccc2)N1CCCC1CCCCC1 [Compound 19] | 6
10 | N=C1N(CC(=O)Nc2cccc(NC(=O)CN3C[C@H](Cc4ccccc4)N(CCCC4CCCCC4)C3=N)c2)C[C@H](Cc2ccccc2)N1CCCC1CCCCC1 [Compound 20] | 80
11 | CCCCCCN1C(=N)N(CC(=O)Nc2cccc(NC(=O)CN3C[C@H](CC(C)C)N(CCCCCC)C3=N)c2)C[C@@H]1CC(C)C [Compound 23] | 266
